Reference: PubChem BioAssay AID504761 (Drosophila RNAi Screening Center, 2011)

Screen: 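Fly genes whose silencing reduces dengue virus type 2 infection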 (primary screen)
System: D.Mel-2 cells from Drosophila
Knock-down reagent: long dsRNA against Drosophila genes
Challenge: infection with dengue virus type 2; dose and infection time not stated
Detection: 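Cells stained for dengue envelope protein and imaged; percent of infected cells per well on duplicate plates, ranked by infection, with stained nuclei counted for cell number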
Direction: infection score: higher = more virus-infected cells; cell count: higher = more cells in the well
Call rule: 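Very low infection ranking in both replicate wells (chance probability at most 0.065), then a retest showing infection dropped 1.5-fold or more at p below 0.05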
Calls: active = confirmed: knock-down lowers infection; inactive = not picked or not confirmed
The screen tested about 22,000 reagents; this is an unselected part of those that have a named target and a result. Over the whole deposit, 116 (0.52%) got an active call. 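Calls depend on retest data that are not deposited; infection was ranked per plate without normalising between plates; the unit of the infection score is not given.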 The raw values are shown without normalisation. A plus sign joins genes that one reagent is predicted to hit. Not all columns of the deposit are shown. Not stated in the record: the amount of reagent, the time to read-out.

Gene	PubChem SID	infection score, replicate 1	infection score, replicate 2	cell count, replicate 1	Call
CG5327 + CG5493	SID104204470	9.29	16.9	6095	inactive
CG12769	SID104203602	5.22	2.85	6344	inactive
hng3 (hinge3)	SID104188159	4.06	1.14	6151	inactive
hng3 (hinge3)	SID104207806	29.5	16.4	4378	inactive
Vps29 (Vacuolar protein sorting 29)	SID104180458	2.49	1.04	6378	inactive
nej (nejire)	SID104197798	15.6	12.8	5155	inactive
nej (nejire)	SID104198593	7.06	2.34	1897	inactive
nej (nejire)	SID104203633	13.2	7.07	4695	inactive
nej (nejire)	SID104205318	4.49	4.55	5588	inactive
CG10444	SID104185782	4.76	8.17	3488	inactive
nAChRbeta2 (nicotinic Acetylcholine Receptor beta2)	SID104196802	12.1	3.63	6137	inactive
acj6 (abnormal chemosensory jump 6)	SID104200096	4.13	1.05	5976	inactive
acj6 (abnormal chemosensory jump 6)	SID104207547	8.37	13.9	4945	inactive
CG2898	SID104198030	3	24.4	1767	inactive
Theg (Testicular haploid expressed gene)	SID104195815	1.23	2.05	6687	inactive
RecQ4 (RecQ4 helicase)	SID104191057	1.11	1.19	5129	inactive
RecQ4 (RecQ4 helicase)	SID104206160	4.72	7.52	5674	inactive
CG11342	SID104187967	1.46	1.28	6357	inactive
CG11342	SID104204825	7.36	6.83	5459	inactive
Gr2a (Gustatory receptor 2a)	SID104198395		0.98	378	inactive
morgue (modifier of rpr and grim, ubiquitously expressed)	SID104180056	6.56	26.2	6208	inactive
CG6847	SID104199005	0.2	0.26	6623	inactive
CG6847	SID104199801	0.99	1.43	6438	active
CG15145	SID104182238	4.29	1.54	6172	inactive
CG15145	SID104205218	1.87	3.22	5950	inactive
CG7974	SID104188399	14.3	11.5	5260	inactive
CG7974	SID104205187	3.58	2.47	6166	inactive
CG15124	SID104186338	5.54	1.93	5973	inactive
CG7432	SID104196035	13.7	4.97	6372	inactive
spirit (Serine Protease Immune Response Integrator)	SID104197994	8.37	6.28	6476	inactive
spirit (Serine Protease Immune Response Integrator)	SID104204292	11.3	6.62	6086	inactive
CG16717	SID104190013	5.81	3.02	5391	inactive
CG16717	SID104208055	3.34	2.18	1078	inactive
CG14410	SID104199388	6.04	3.89	6454	inactive
swm (second mitotic wave missing)	SID104181804	12.3	20.1	6172	inactive
swm (second mitotic wave missing)	SID104201479	19.5	8.98	5127	inactive
mbt (mushroom bodies tiny)	SID104202377	0.85	2.39	6925	inactive
mbt (mushroom bodies tiny)	SID104204362	4.2	10.9	6613	inactive
CG10947	SID104181903	3.22	3.91	6331	inactive
CG10947	SID104205948	15.8	5.1	6562	inactive
CG2767	SID104195243	17.2	14	4380	inactive
CG2767	SID104205374	15.8	4.4	6777	inactive
CG17298	SID104195013	4.68	5.3	6245	inactive
CG17298	SID104206441	2.89	7.87	6712	inactive
CG34214	SID104184282	25.6	6.7	5957	inactive

Entries above with an active call, once more:
Gene	PubChem SID	infection score, replicate 1	infection score, replicate 2	cell count, replicate 1	Call
CG6847	SID104199801	0.99	1.43	6438	active

Next records follow.
Gene	PubChem SID	infection score, replicate 1	infection score, replicate 2	cell count, replicate 1	Call
CG11349	SID104187971	1.38	1.32	6086	inactive
CG11349	SID104206107	10.3	7.16	6951	inactive
dpa (disc proliferation abnormal)	SID104187396	12.2	5.65	6097	inactive
gammaCOP (Coat Protein (coatomer) gamma)	SID104196747	1.98	0.92	555	inactive
RpL3 (Ribosomal protein L3)	SID104196626	2.77	7.4	2093	inactive
CG16789	SID104194947	2.02	4.4	6879	inactive
Yeti	SID104200930	4.12	9.11	5991	inactive
CHMP2B (Charged multivesicular body protein 2b)	SID104190228	9.89	2.71	6209	inactive
CHMP2B (Charged multivesicular body protein 2b)	SID104204765	10.8	4.27	6594	inactive
ATPsyngamma (ATP synthase, gamma subunit)	SID104193886	2.75	5.7	1452	inactive
Tsp66E (Tetraspanin 66E)	SID104189475	0.5	2.42	6636	inactive
CG1371	SID104186201	5.51	3.27	5967	inactive
CG5191	SID104195525	3.97	5.39	6545	inactive
CG5191	SID104195526	4.5	5.07	6461	inactive
CG5191	SID104201272	0.87	1.52	6005	inactive
CG5191	SID104206233	4.47	12	6448	inactive
Idh3a (Isocitrate dehydrogenase 3a)	SID104199238	7.03	1.09	5649	inactive
Idh3a (Isocitrate dehydrogenase 3a)	SID104206847	2.49	1.68	723	inactive
CG10357	SID104187947	1.02	2.67	5994	inactive
7B2	SID104191783	4.99	2.43	6989	inactive
shv (shriveled)	SID104180432	26.7	22.6	6160	inactive
shv (shriveled)	SID104201680	4.11	4.95	6421	inactive
shv (shriveled)	SID104205026	1.49	2.71	5645	inactive
shv (shriveled)	SID104205027	2.67	2.96	5701	inactive
Map205 (Microtubule-associated protein 205)	SID104196524	0.79	5.79	6925	inactive
Map205 (Microtubule-associated protein 205)	SID104205866	8.22	19.4	6889	inactive
CG2129	SID104198001	2.55	2.51	6341	inactive
CG2129	SID104203488	3.26	5.07	5958	inactive
CG15657	SID104184040	13.6	17.2	5189	inactive
